Percent effect of library compounds

From ChEMBL document CHEMBL3988442, “University of Dundee, Small-Polar-MMV Screening Library” (2021).

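Growth of Mycobacterium tuberculosis over 4 days (cholesterol / DPPC medium with tyloxapol); the read-out is not stated. Concentration: 50 µM. Higher reads as more growth inhibition (inferred: compounds with an IC50 in retests scored well above the rest). Of about 69,000 compounds tested this way, about 370 (0.54%) reached 50% or more in at least one test.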

Values are the deposited “Percent Effect”, in %.
The record does not define 0% and 100%; most values in the screen are far below 50% and negative numbers occur (in some assays of this library far below -100).
Many other results are left out here, so strong results are more common than in the screen.
Two or more numbers in one place are separate tests of the same structure; such repeats can differ widely.

Compound | percent effect
COCc1noc(-c2ccc(N(C)Cc3nccs3)nc2)n1 | 6.647 and 19.35
COc1cccc(CN(C)C(=O)Nc2ccc3c(c2)OCCO3)c1 | 1.743
O=C(Cn1cc(Cl)cn1)Nc1ccc2c(c1)OCCCO2 | -14.07
Cc1c(C(=O)NCC2CCN(C)C2)n(C)c2c(C)cccc12 (centres unmarked) | 4.49
CN(CCC(N)=O)Cc1cc(Br)cs1 | 8.04
CS(=O)(=O)c1ccc(Cl)c(C(=O)NCCC2=CCCCC2)c1 | 1.149
CN(Cc1cccc(Cl)c1)S(=O)(=O)N1CCOCC1 | -5.901
OCC1(Cc2ccccc2F)CCCN(c2ccc3ccccc3n2)C1 (centres unmarked) | 3.021
Cc1ccc(CN(CCCn2ccnc2)Cc2cnn(C)c2)s1.O=C(O)CC(O)(CC(=O)O)C(=O)O | -21.88
Cc1ccc(S(=O)(=O)N(C)Cc2cnccn2)cc1N(C)C | -9.847
CCN(C)S(=O)(=O)NCC(O)c1c(Cl)cccc1Cl (centres unmarked) | -5.516
CN(CCCOc1ccccc1)C(=O)c1csc(-c2nnc[nH]2)n1 | 0.3459 and 51.78
FC1(F)CCN(Cc2ccncc2)CC12CCN(c1cccnc1)C2.O=C(O)C(F)(F)F.O=C(O)C(F)(F)F.O=C(O)C(F)(F)F (centres unmarked) | 11
CCc1nnc2n1CCN(C(C(=O)NC1CC1)c1ccc(F)cc1)C2 (centres unmarked) | 11.13
Cc1ccccc1N1CCN(c2nc(N(C)C)nc3c2CCNC3)CC1 | 71.18
CC(C)N(CCNC(=O)c1[nH]nc2ccc(I)cc12)C(C)C | 80.96
COCCN1CC=C(c2cccc(OC)c2)CC1 | 10.76
CC(=O)Nc1ccc(/C=C/c2ncc(C(=O)O)s2)cc1 | -6.63
Cc1nc(C2CCCN2C(=O)CCCOc2cccc(F)c2)no1 (centres unmarked) | 3.083 and -42.32
CC1(c2ccccc2)CCCN(Cc2cncn2C2CCCC2)C1 (centres unmarked) | 86.27
CC(C)OCc1noc(C2CCOC2)n1 (centres unmarked) | -36.66
COc1ncc(C(=O)NCc2ccc(Br)cc2)cn1 | -2.002
Cc1ccc(C(=O)N2CC(Oc3ccccc3C)C2)s1 | 61.21
COc1ccc(COCC(O)CN(C)c2ccc(C)cc2C)cc1 (centres unmarked) | 50.28
CN(C)C(=O)c1csc(-c2ccoc2)n1 | -8.097
COc1cccnc1NC(=O)COc1ccc(F)cc1F | 7.922
c1ccc(-c2cc(CN3CCCC(Cn4cncn4)C3)on2)cc1 (centres unmarked) | 9.716
N#CCCCn1nnc(C2(NC(=O)c3ccccc3)CCCC2)n1 | -1.741
CC(C)(C)C(=O)NS(=O)(=O)c1ccc(C#N)c(C(F)(F)F)c1 | -2.219
COC(=O)c1cccc(NCC(=O)NC(N)=O)c1 | -26.36
COc1ccc(C[C@H]2CN(C(=O)c3ncccn3)CC[C@@H]2OC)cc1 | 9.62
Cn1cc(NC(=O)c2cc[nH]n2)cc(Cl)c1=O | 82.38
Cc1nc2n(n1)CC(NCc1nc(C)c(C)o1)CC2 (centres unmarked) | -0.445
CNC(=O)C1CN(C(=O)c2cccnc2)CCN(S(C)(=O)=O)C1 (centres unmarked) | 12.42 and 2.344
CCOc1ccc(CN2CCCC(c3cc4ncccc4[nH]3)C2)cc1 (centres unmarked) | 37.51 and 43.69
CCS(=O)(=O)N1CCC(c2nnc(CN3CCCCCC3)n2C)CC1 | 81.93
Cc1cnn(CC2CN(c3cnc4ccccc4n3)CCO2)c1 (centres unmarked) | 82.16
COc1coc(CN2CCCC(CCc3ccc(F)c(F)c3)C2)cc1=O (centres unmarked) | 53.81
CN(C)c1cc(C2CCCN(C(=O)c3noc4c3CCCC4)C2)ccn1 (centres unmarked) | 61.23
COC(=O)N1CCC(Nc2cccc(F)c2C#N)CC1 | 0.2017 and -5.62
O=C1N(Cc2ccc(F)c(F)c2)CCCC12CCN(C1CCSCC1)C2 (centres unmarked) | -3.542
O=C(c1c(F)cccc1F)N1CCOCC1 | 29.78
COC(=O)CNC(=O)c1scnc1C | -5.145
O=S(=O)(NCCNc1cc(-n2cccn2)ncn1)c1cccs1 | -8.444
CN(C)c1cc(C(=O)N2CCCC(n3cccn3)C2)ccn1 (centres unmarked) | 15.07
O=C(NCCN1CCOCC1)c1cc2c(s1)CCN2Cc1cccnc1 | -19.28
Cc1cc(CNc2ccc(C(F)(F)F)cc2)no1 | 50.66
CCCN1Cc2ccccc2NC(=O)C12CCNC2 (centres unmarked) | -2.807
COCc1nc2cc(NCc3ccncc3)ccc2o1 | -3.5 and 11.79
COc1ccc2nnc(C(=O)NCC3CCCC3)nc2c1 | 31.88
CN(C)CCN1C(=O)CCC12CCCN(C(=O)c1cccnc1)CC2.O=C(O)C(F)(F)F.O=C(O)C(F)(F)F (centres unmarked) | 1.071 and 52.15
O=C(NCCOc1ncc(Cl)cc1Cl)c1cccnc1 | -2.143 and -8.584
CC(=O)N1CCCC1c1nnn2cc(Nc3ccccc3)ccc12.O=C(O)C(F)(F)F (centres unmarked) | -2.79 and -1.181
Cc1ccc(CN(CCCn2ccnc2)Cc2c[nH]cn2)s1.O=C(O)CC(O)(CC(=O)O)C(=O)O | -10.02
Cc1ccc(CN[C@@H]2COC[C@H]2Cc2cc(C)no2)cc1.O=C(O)CC(O)(CC(=O)O)C(=O)O | 2.727
COc1ccc(CCC(C)Nc2cccc(SC)c2)cc1 (centres unmarked) | 69.57
COC(=O)c1ccc(C(=O)NCc2ccc(Br)cc2)cn1 | 93.55
COc1ccc(-c2nc(CN3CCN(CCO)CC3)co2)cc1 | -2.209
COc1cc(OC)cc(N2CCC(NCc3cc[nH]n3)C2)c1 (centres unmarked) | 0.8222
Cc1ccc(CN2CCOC3(CCN(C(=O)C4CC=CC4)CC3)C2)cc1.O=C(O)C(F)(F)F | 34.88
Cc1nc(N2CCOCC2)nc2c1CCN(Cc1cccnc1)CC2.O=C(O)C(F)(F)F | 13.46
CN(C)c1cc(C(=O)Nc2cccnc2N2CCSCC2)ccn1 | -11.75
CCc1c(C(=O)NCC2CCS(=O)(=O)C2)cnn1-c1ccc(C)cc1 (centres unmarked) | 5.975
CCOc1cc(C)c(-c2cc(N)[nH]n2)cc1OCC | -2.061
CCC[C@@H]1CN(Cc2ccc3c(c2)OCCO3)C[C@H]1C(=O)O | -12.34 and 63.42
Cl.O=S(=O)(c1ccc(Cl)cc1)N1CCc2nc(C3CCNCC3)ncc2C1 | 19.64
CC(C)Oc1cccc(C(=O)C2CCCN(C(=O)c3ccnn3C)C2)c1 (centres unmarked) | -0.5837
c1ccc(Cc2cncc(C3CCCN3C3CCOCC3)n2)cc1 (centres unmarked) | 1.188 and -0.1312
Cn1nccc1C(=O)N1CCC(n2cc(-c3ccsc3)nn2)CC1 | 0.1361
COc1ccc(C(CNS(=O)(=O)c2cn(C)nc2C)N2CCCC2)cc1.Cl (centres unmarked) | -8.429 and -37.38
Cc1ccc2[nH]c(=O)cc(C(=O)NCCCn3nccc3C3CC3)c2c1 | -10.07 and 54.51
CSC1=Nc2c(cnn2-c2cccc(Cl)c2)C2=NCCCN12 | 49.26

9 of the entries, repeated:

{"compound": "N#CCCCn1nnc(C2(NC(=O)c3ccccc3)CCCC2)n1", "percent effect": -1.741}
{"compound": "Cc1ccc(CN[C@@H]2COC[C@H]2Cc2cc(C)no2)cc1.O=C(O)CC(O)(CC(=O)O)C(=O)O", "percent effect": 2.727}
{"compound": "CC(C)Oc1cccc(C(=O)C2CCCN(C(=O)c3ccnn3C)C2)c1", "stereo": "centres unmarked", "percent effect": -0.5837}
{"compound": "CSC1=Nc2c(cnn2-c2cccc(Cl)c2)C2=NCCCN12", "percent effect": 49.26}
{"compound": "COCCN1CC=C(c2cccc(OC)c2)CC1", "percent effect": 10.76}
{"compound": "OCC1(Cc2ccccc2F)CCCN(c2ccc3ccccc3n2)C1", "stereo": "centres unmarked", "percent effect": 3.021}
{"compound": "COc1coc(CN2CCCC(CCc3ccc(F)c(F)c3)C2)cc1=O", "stereo": "centres unmarked", "percent effect": 53.81}
{"compound": "CCOc1cc(C)c(-c2cc(N)[nH]n2)cc1OCC", "percent effect": -2.061}
{"compound": "COc1cc(OC)cc(N2CCC(NCc3cc[nH]n3)C2)c1", "stereo": "centres unmarked", "percent effect": 0.8222}